This is an account of results in patent EP0032748B1, “Thiophene derivatives” (UBE INDUSTRIES, LTD., priority 1980, dated 1981).

This assay concerns Pellicularia sasakii. The following applies: Table 4; spray liquid 65 ppm; paddy rice sheath blight; lesion length 4 days after inoculation.

As for Ammonium iron methanearsonate, the Control value is listed as 90%.
